Measured values: patent US20170313764A1 (ACADEMISCH MEDISCH CENTRUM, published 2017)

Molecular target: soluble E2-his6-sortase tag from HCV isolate H77 (genotype 1a) (Hepatitis C virus genotype 1a, strain …, UniProt P27958 384-717)

B1: AT15-009 (antibody, V domains shown)
VH: QVLLVQSGAEVKKPGSSVKVSCKASGGTFSTYAISWLRQAPGQGPEWMGGIVPMFGITNYAQHFQGRITITADKSTSTAYMELSSLGSEDTAVYFCARDLRSGGTFFSRGFDLWGPGTKVTVSS
VL: EIVLTQSPGTLSLSPGERATLSCRASQSVSSSFLTWYQQKPGQAPRLLIFDASTRATGVPDRFSGSGSGTDFTLTISRLEPEDFGVYYCQQFDSSPTFGGGTKVEIK
  Kd: 0.242 nM
